The source of these data is US20240350522A1, “HYGROMYCIN A FOR TREATMENT OF DISEASES AND INFECTIONS” (FLIGHTPATH BIOSCIENCES, INC., priority 2021, published 2024).

Common to all, as to assay: Kirby-Bauer diffusion assay
Type in all cases: cell-based, Fusobacterium nucleatum
Common to all, as to conditions: linear regression

One data set deals with F. nucleatum animalis. Here is the method:
(§1) Three representatives of 6 subspecies of Fusobacterium nucleatum (F. nucleatum) for a total of 18 strains were tested in the experiment. The sub species and strains are described in Table 2.
(§2) All strains were verified by 16S V3/V6 sequence analysis prior to use. The methods described herein were performed in an anaerobic chamber at 37° C. All media and plates were degassed prior to use.
(§3) Hygromycin A (Hyg A) discs were prepared by solubilizing Hyg A in distilled water and sterile filtered. Clindamycin was used as a positive control. Defined amounts of hygromycin A (40, 20, 10 or 5 micrograms), clindamycin (2 micrograms) or sterile distilled water were absorbed onto Kirby-Bauer discs in a biosafety cabinet.
(§4) An overnight culture was grown in Wilkins-Chalgren (WC) broth and back-diluted 1:10 in fresh broth. When an OD 600 reading reached 0.5, 300 μL of the log phase culture was plated onto WC agar plates. The plates were sectioned into quadrants and a Kirby-Bauer (KB) disc impregnated with a defined amount of hygromycin A was placed in each quadrant. Plates were prepared thus in triplicate and the four amounts of hygromycin A were 40, 20 10 and 5 micrograms. The same volume of culture was spread on fourth plate sectioned into six sections for three positive and three negative controls. KB discs with water served as negative controls and KB discs impregnated with 2 micrograms of clindamycin served as positive controls. […] Table 3, Table 4, Table 5, Table 6, Table 7, Table 8 show the mean size of zone inhibitions for each of the subspecies tested using increasing concentrations of hygromycin A where the standard error of mean is represented in parenthesis.
(§5) The amount of hygromycin A was plotted against the size of the zone of inhibition for each strain tested.

The subject of the next data set is F. nucleatum fusiforme. The method, then: as §1, §2, §3, §4, §5
In another data set the test system is F. nucleatum nucleatum. Here is the method: as §1, §2, §3, §4, §5
Data set [1] has as its system F. nucleatum periodonticum. Here is the method:
as §1, §2, §3, §4, §5

Another data set deals with F. nucleatum polymorphum. Here is the method: as §1, §2, §3, §4, §5
A further data set concerns F. nucleatum vincentii. Here is the method:
as §1, §2, §3, §4, §5

On to `CC(=O)[C@H]1O[C@@H](Oc2ccc(/C=C(\C)C(=O)N[C@@H]3[C@H](O)[C@@H](O)[C@H]4OCO[C@H]4[C@@H]3O)cc2O)[C@@H](O)[C@@H]1O` [Hyg A, Hygromycin A], for which the “Slope, zone of inhibition (in mm) versus amount of hygromycin A” value is on record as 0.19 with F. nucleatum animalis (strain 7_1); 0.65 with F. nucleatum animalis (strain 218A8); 0 in the data set with F. nucleatum animalis (strain CRC 7_3JVN3C1); 0.68 in the data set with F. nucleatum fusiforme (strain 203C15); 0.49 with F. nucleatum fusiforme (strain 203L25); 0.21 in the data set on F. nucleatum fusiforme (strain 203L30). For the same compound, the “Slope, zone of inhibition (in mm) versus amount of hygromycin A” value in the data set with F. nucleatum nucleatum (strain 2_3 FMU 1) turned out to be 0.46; with F. nucleatum nucleatum (strain 203L34), 0.49; with F. nucleatum nucleatum (strain 25586), 0.38; in data set [1] (strain 2_1_31 EAV015), 0.26; in data set [1] (strain 3_1_7B), 0.27; in data set [1] (strain 209B32), 0.35. Moreover, the “Slope, zone of inhibition (in mm) versus amount of hygromycin A” value is reported as 0.29 with F. nucleatum polymorphum (strain 13_3C EAV005); 0.27 in the data set with F. nucleatum polymorphum (strain 203L28); 0.23 in the data set with F. nucleatum polymorphum (strain 203L29); 0.24 with F. nucleatum vincentii (strain 3/1/36A2); 0 with F. nucleatum vincentii (strain 215A9); 0.28 in the data set with F. nucleatum vincentii (strain CC53).
